Measured values from several laboratories, pooled; numbers as filed in NIAID ChemDB.

Common to all: whole-cell or culture tests; agent: Staphylococcus aureus

Two numbers with a dash give a range or band.

| structure | strain or isolate | method | read-out | tested at | value |
|---|---|---|---|---|---|
| C=CCCCCCC(CCCCBr)CCCC(=O)NCCC=C | Clinical | agar diffusion | zone | 100 µg/disc | 14 mm |
| CCCCCCCCCCCC[N+](C)(C)COCCCCCCCC | ATCC 6538 |  | MBC |  | 6.38 µM |
| C[C@H]1COc2c(N3CCN(C)CC3)c(F)cc3c(=O)c(C(=O)O)cn1c23 | 46 isolates (methicillin-resistant) |  | MIC50 |  | 0.5 µg/mL |
| CS(=O)(=O)N[C@H]1CCN(c2ccc(N3C[C@H](COc4cnsn4)OC3=O)cc2F)C1 | 004 (methicillin quinolone-resistant) |  | MIC |  | 0.5 µg/mL |
| C[C@@H]1CN(c2c(F)c(N)c3c(=O)c(C(=O)O)cn(C4CC4)c3c2F)C[C@H](C)N1 | Methicillin-susceptible |  | MIC90 |  | 0.06–0.2 µg/mL |
| CCCNCCNc1cc2c(cc1F)c(=O)c(C(=O)O)cn2C1CC1 | ATCC 6538P |  | MIC |  | >100 µg/mL |
| COc1c(N2C[C@@H]3CCCN[C@@H]3C2)c(F)cc2c(=O)c(C(=O)O)cn(C3CC3)c12 | 296 isolates (methicillin-susceptible) |  | MIC90 |  | 0.1 µg/mL |
| CC[C@H]1OC(=O)[C@@](C)(F)C(=O)[C@H](C)[C@@H](O[C@@H]2O[C@H](C)C[C@H](N(C)C)[C@H]2O)[C@@]2(C)C[C@@H](C)C(=NC(C)=O)[C@H](C)[C@@H](OC/C(=N\OCc3ccc(-n4cccn4)nc3)CO2)[C@]1(C)O | 25 strains |  | MIC50 |  | 0.125 µg/mL |
| CC[C@H]1OC(=O)[C@H](C)C(=O)[C@H](C)[C@@H](O[C@@H]2O[C@H](C)C[C@H](N(C)C)[C@H]2O)[C@@]2(C)C[C@@H](C)C(=NC(C)=O)[C@H](C)C(OC/C(=N\OCC#Cc3cccc(N)n3)CO2)[C@]1(C)O | 25 strains |  | MIC50 |  | 4 µg/mL |
| C[C@H]1NCc2cc(-c3ccc4c(=O)c(C(=O)O)cn(C5CC5)c4c3OC(F)F)ccc21 | A15090 (methicillin-susceptible) |  | MBC |  | 0.03 µg/mL |
| O=C(CO)N[C@H]1CCN(c2ccc(N3C[C@H](CNc4ccon4)OC3=O)cc2F)C1 | 004 (methicillin quinolone-resistant) |  | MIC |  | 4 µg/mL |
| CCCCCCCCCCCC[N+](C)(C)COCCCCC | ATCC33592 |  | MBC |  | 7.14 µM |
| COC(CN(C)c1cc2c(cc1F)c(=O)c(C(=O)O)cn2C1CC1)OC | ATCC 5278 (methicillin-resistant) |  | MIC |  | 3.12 µg/mL |
| CO/N=C1\CN(c2nc3c(cc2F)c(=O)c(C(=O)O)cn3C2CC2)CC1CN | 38 isolates (methicillin-resistant) |  | MIC50 |  | 1 µg/mL |
| CCCC[C@H](CC(=O)NO)C(=O)N1CCC[C@H]1C(=O)OC(C)(C)C | 25 strains |  | MIC90 |  | 2 µg/mL |
| O=C(O)c1cn(C2CC2)c2cc(NCCN3CCCCC3)c(F)cc2c1=O | ATCC 6538P |  | MIC |  | >100 µg/mL |
| CCCCCCCCCCCC[N+](C)(C)COC(C)C | ATCC33592 |  | MBC |  | 18.6 µM |
| CCOC(CC(C)(C)CNc1cc2c(cc1F)c(=O)c(C(=O)O)cn2C1CC1)OCC | ATCC 5278 (methicillin-resistant) |  | MIC |  | >100 µg/mL |
| CN(C)CC(=O)Nc1ccc2c(c1O)C(O)=C1C(=O)[C@]3(O)C(O)=C(C(N)=O)C(=O)[C@@H](N(C)C)[C@@H]3C[C@@H]1C2 | Oxacillin-resistant |  | MIC90 |  | 0.5 µg/mL |
| Cc1c(NCCO)c(F)cc2c(=O)c(C(=O)O)cn(-c3cc(N)c(F)cc3F)c12 | 27 isolates (methicillin-resistant) |  | MIC50 |  | 0.03 µg/mL |
| CCCCCCCCCCCC[N+](C)(C)COC1CCCCCC1 | ATCC 6538 |  | MBC |  | 26.6 µM |
| CC(C)(C)n1cc(C(=O)O)c(=O)c2cc(F)c(N3C[C@H]4C[C@@H]3CN4)nc21 | 61 strains (methicillin-susceptible) |  | MIC50 |  | 0.13 µg/mL |
| NCCNc1cc2c(cc1F)c(=O)c(C(=O)O)cn2C1CC1 | ATCC 6538P |  | MIC |  | 6.25 µg/mL |
| CCCCCCCCCCCC[N+](C)(C)CSCCCCCC | ATCC 6538 |  | MBC |  | 131 µM |
| CC(C)(C)n1cc(C(=O)O)c(=O)c2cc(F)c(N3C[C@H]4C[C@@H]3CN4)nc21 | 44 strains (methicillin-resistant) |  | MIC90 |  | 0.5 µg/mL |
| CC[C@H]1OC(=O)[C@H](C)C(=O)[C@H](C)[C@@H](O[C@@H]2O[C@H](C)C[C@H](N(C)C)[C@H]2O)[C@](C)(OC)C[C@@H](C)C(=O)[C@H](C)[C@H]2N(CCCCn3cnc(-c4cccnc4)c3)C(=O)O[C@]12C | 25 strains |  | MIC50 |  | 0.125 µg/mL |
| CC(C)C[C@@H]1NC(=O)CNC(=O)[C@@H]2CCCN2C(=O)[C@H](CC(N)=O)NC(=O)[C@H](C)NC(=O)[C@H](Cc2ccc(O)cc2)NC(=O)[C@H]2CCCC2C1=O |  |  | zone | 12.5 µg/mL | 10 mm |
| COc1c(N2CCNC(C)C2)c(F)cc2c(=O)c(C(=O)O)cn(C3CC3)c12 | 30 strains (methicillin-resistant) |  | MIC50 |  | 0.1 µg/mL |
| CCCCCCCCCCCC[N+](C)(C)COCCC(C)C | ATCC 6538 |  | MBC |  | 7.14 µM |
| O=C1O[C@@H](CNc2ccon2)CN1c1ccc(-n2cnc(CO)c2)c(F)c1 | 078 (oxford) |  | MIC |  | 0.25 µg/mL |
| CCCCCCCCCCCC[N+](C)(C)COC(C)CCCCCC | ATCC33592 |  | MBC |  | 3.06 µM |
| CNc1c(F)cc2c(=O)c(C(=O)O)cn(-c3cc(N)c(F)cc3F)c2c1C | 27 isolates |  | MIC90 |  | 0.015 µg/mL |
| CCCCCCCCCCCC[N+](C)(C)COCC(C)CCC | ATCC33592 |  | MBC |  | 3.3 µM |
| CCCCN(CCCC)CCCNc1cc2c(cc1F)c(=O)c(C(=O)O)cn2C1CC1 | ATCC 6538P |  | MIC |  | 100 µg/mL |

A second listing of 4 rows from above:

structure | strain or isolate | method | read-out | tested at | value
COC(CN(C)c1cc2c(cc1F)c(=O)c(C(=O)O)cn2C1CC1)OC | ATCC 5278 (methicillin-resistant) |  | MIC |  | 3.12 µg/mL
CC[C@H]1OC(=O)[C@H](C)C(=O)[C@H](C)[C@@H](O[C@@H]2O[C@H](C)C[C@H](N(C)C)[C@H]2O)[C@@]2(C)C[C@@H](C)C(=NC(C)=O)[C@H](C)C(OC/C(=N\OCC#Cc3cccc(N)n3)CO2)[C@]1(C)O | 25 strains |  | MIC50 |  | 4 µg/mL
CCCCN(CCCC)CCCNc1cc2c(cc1F)c(=O)c(C(=O)O)cn2C1CC1 | ATCC 6538P |  | MIC |  | 100 µg/mL
C[C@H]1NCc2cc(-c3ccc4c(=O)c(C(=O)O)cn(C5CC5)c4c3OC(F)F)ccc21 | A15090 (methicillin-susceptible) |  | MBC |  | 0.03 µg/mL

Neighbouring rows are from separate reports. MIC50, MIC90 and the like: level of inhibition, or share of isolates inhibited. Zone: diameter of growth inhibition. Blank or dashed fields: not listed here.